Reference: publication PMC9734137 (Cell Discovery, 2022)

B1: aSA3 (VHH)
VHH: QVQLVESGGGLVQPGGSLRLSCAASGFTSDHYALAWFRQAPGKEREGVSCIDSDGNPFYADSVKGRFTGSRDNAKNTVYLQMNSLKLEDTAVYYCAAGLWYGRSLNSFDYDYWGQGTQVTVSS
B2: SARS1 RBD (domain or fragment)
chain: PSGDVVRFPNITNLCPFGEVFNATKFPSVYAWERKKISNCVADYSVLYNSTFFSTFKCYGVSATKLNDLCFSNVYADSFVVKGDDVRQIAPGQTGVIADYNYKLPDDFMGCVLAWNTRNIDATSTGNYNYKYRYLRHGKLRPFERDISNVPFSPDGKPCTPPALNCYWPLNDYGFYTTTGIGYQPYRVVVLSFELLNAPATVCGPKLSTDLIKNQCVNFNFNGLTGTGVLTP

Assays:
SARS1 RBD [1] = biological target: B2; assay: SPR; conditions: both partners purified
SARS1 RBD [2] = biological target: B2; assay: cell-based or functional assay
aSA3-Fc = aSA3-Fc (alpaca); assay: SPR; conditions: both partners purified

Binder	Kd (SARS1 RBD [1])	IC50, neutralisation of SARS1 pseudovirus (blocks RBD-ACE2) (SARS1 RBD [2])	Kd (aSA3-Fc)
B1	361 pM	2220 pM	–
B2	–	–	85.4 pM
